Pooled drug test results. Numbers come from NIAID ChemDB, via PubChem.

ICn: concentration for n% inhibition.

SMILES,test,organism,strain or isolate,cell line,protein,read by,endpoint,tested at,value
Fc1cccc(-c2cncc(N3CCN(c4ccccc4)CC3)n2)c1,target,Cytomegalovirus,-,-,UL97 kinase,-,IC50,-,<100 µM
O=S(=O)([O-])c1ccc2c(S(=O)(=O)[O-])cc(S(=O)(=O)[O-])cc2c1,culture,Herpes simplex virus,-,Human amnion AV3 cells,-,cytopathic effect,inhibition,5 µg/mL,0%
CCO/N=C/c1ccc(OCCC2CCN(c3ccc(Cl)nn3)CC2)cc1,culture,Rhinovirus,FEB (ICAM-1 receptor group 3),KB,-,neutral red,EC50,-,0.019 µM
Nc1nc(N)c2nc(Cc3ccc(Cl)cc3)c(Cc3ccc(Cl)cc3)nc2n1,target,Cryptosporidium parvum,TYPE 1,-,Dihydrofolate reductase,-,IC50,-,1.2 µM
Cc1cc(-c2ccc(N=Nc3ccc4c(S(=O)(=O)O)cc(S(=O)(=O)O)c(N)c4c3O)c(C)c2)ccc1N=Nc1ccc2c(S(=O)(=O)O)cc(S(=O)(=O)O)c(N)c2c1O,culture,Rhinovirus,-,Human amnion AV3 cells,-,cytopathic effect,inhibition,5 µg/mL,0%
C=CCc1ccc(OC)c(OC)c1,culture,Candida tropicalis,2803,-,-,turbidity,MIC90,-,340 µg/mL
O=S(=O)(O)c1cccc2c(O)cccc12,culture,Adenovirus,TYPE 3,Human amnion AV3 cells,-,cytopathic effect,inhibition,5 µg/mL,0%
CCOC(=O)c1c(C)nc(OCCCNc2ccnc3cc(Cl)ccc23)nc1-c1ccccc1,culture,Cryptococcus neoformans,ATCC 62066,-,-,-,MIC99,-,8 µg/mL
c1ccc(C2CCN(c3cncc(-c4ccc5ccccc5c4)n3)CC2)cc1,target,Cytomegalovirus,-,-,UL97 kinase,-,inhibition,1 µM,<50%
Nc1nc(N)c2nc(CN3c4ccccc4C=Cc4ccccc43)cnc2n1,target,Cryptosporidium parvum,TYPE 2,-,Dihydrofolate reductase,-,IC50,-,2.1 µM
CCOC(=O)c1c(C)nc(NCCCCNc2ccnc3cc(Cl)ccc23)nc1-c1ccc(F)cc1,culture,Cryptococcus neoformans,C-3-1,-,-,-,MIC99,-,2 µg/mL
CCOC(=O)/C=C/[C@H](C[C@@H]1CCNC1=O)NC(=O)[C@@H](CC(=O)[C@@H](NC(=O)c1cc(C)on1)C(C)C)Cc1ccc(F)cc1,culture,Rhinovirus,Isolate 16,OHIO HELA-I,-,cytopathic effect / visual reading,EC50,-,<0.01 µg/mL
Nc1nc(N)c2c(CNc3cc(Cl)c(-n4cccc4)c(Cl)c3)csc2n1,target,Cryptosporidium parvum,TYPE 1,-,Dihydrofolate reductase,-,IC50,-,>10 µM
CN(C)c1cccc(-c2cncc(N3CCN(c4ccncc4)CC3)n2)c1,target,Cytomegalovirus,-,-,UL97 kinase,-,IC50,-,<100 µM
Cc1sc2nc(N)nc(N)c2c1-c1ccc(Cl)cc1,target,Cryptosporidium parvum,TYPE 2,-,Dihydrofolate reductase,-,IC50,-,>10 µM
CCC(CC)[C@H](NC(C)=O)[C@@H]1[C@H](O)[C@@H](C(=O)O)C[C@H]1N=C(N)N,culture,Influenza A virus,H1N1 A/Beijing/262/95,MDCK,-,visual reading,EC50,-,0.17 µM
Oc1ccccc1N=Cc1ccc2c(c1)OCO2,culture,Cryptococcus gattii,LMM 818,-,-,-,MIC99,-,11.3 µg/mL
COc1cc(N(C)Cc2c(Br)sc3nc(N)nc(N)c23)cc(OC)c1OC,target,Cryptosporidium parvum,TYPE 1,-,Dihydrofolate reductase,-,IC50,-,>10 µM
Fc1ccc(N2CCCCC2)c(NC(=S)c2ccncc2)c1,host protein,-,-,-,CDC7,kinase activity,inhibition,10 µM,2.5%
COc1cc(CCc2cc3c(N)nc(N)nc3s2)c(Br)c(OC)c1OC,target,Cryptosporidium parvum,TYPE 1,-,Dihydrofolate reductase,-,IC50,-,5.1 µM
Cc1ccc(N2CCN(c3cncc(-c4ccc5ccccc5c4)n3)CC2)cc1C,target,Cytomegalovirus,-,-,UL97 kinase,-,inhibition,1 µM,<50%
Cc1cc(-c2ccc(N=Nc3c(N)c(S(=O)(=O)O)cc4cc(S(=O)(=O)O)ccc34)c(C)c2)ccc1N=Nc1c(N)ccc2cc(S(=O)(=O)O)ccc12,culture,Adenovirus,TYPE 3,Human amnion AV3 cells,-,cytopathic effect,inhibition,50 µg/mL,0%
Cc1cccc(-c2cncc(N3CCN(c4cccc(C(F)(F)F)c4)CC3)n2)c1,target,Cytomegalovirus,-,-,UL97 kinase,-,IC50,-,<100 µM
O=S(=O)([O-])c1ccc(O)cc1,culture,Rhinovirus,-,Human embryonic lung cells,-,cytopathic effect,inhibition,10 µg/mL,0%
COc1cc(N(C)Cc2csc3nc(N)nc(N)c23)cc(OC)c1OC,target,Cryptosporidium parvum,TYPE 1,-,Dihydrofolate reductase,-,IC50,-,>10 µM
Oc1ccccc1N=Cc1ccc(O)c(O)c1O,culture,Cryptococcus gattii,196L/03,-,-,-,MIC99,-,22.6 µg/mL
O=S(=O)([O-])c1ccc(O)c2ccccc12,culture,Rhinovirus,-,Human embryonic lung cells,-,cytopathic effect,inhibition,5 µg/mL,0%

A second listing of 4 rows from above:

SMILES,test,organism,strain or isolate,cell line,protein,read by,endpoint,tested at,value
O=S(=O)(O)c1cccc2c(O)cccc12,culture,Adenovirus,TYPE 3,Human amnion AV3 cells,-,cytopathic effect,inhibition,5 µg/mL,0%
CCO/N=C/c1ccc(OCCC2CCN(c3ccc(Cl)nn3)CC2)cc1,culture,Rhinovirus,FEB (ICAM-1 receptor group 3),KB,-,neutral red,EC50,-,0.019 µM
Cc1sc2nc(N)nc(N)c2c1-c1ccc(Cl)cc1,target,Cryptosporidium parvum,TYPE 2,-,Dihydrofolate reductase,-,IC50,-,>10 µM
Cc1cccc(-c2cncc(N3CCN(c4cccc(C(F)(F)F)c4)CC3)n2)c1,target,Cytomegalovirus,-,-,UL97 kinase,-,IC50,-,<100 µM

ECn: concentration that inhibits the pathogen or its effect by n%. Percent inhibition refers to the dose given; in toxicity tests it is the harm to the cells. Lines come from different laboratories, so protocols vary. A number after MIC or MFC names an inhibition level or a share of isolates. Blank or dashed fields: not listed here.